Single amino acid changes in Zika NS2B-NS3 and viral growth

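Mutant virus pools were grown in human Huh-7.5 cells. The effect is the change in frequency of a mutant, normalised to wild type, as a mean of three replicate libraries (two for positions 207-308).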

Protein: NS2B and the protease part of NS3 of Zika virus strain MR766. Positions count along the chain below; NS2B spans 2-131 and NS3 starts at 132.
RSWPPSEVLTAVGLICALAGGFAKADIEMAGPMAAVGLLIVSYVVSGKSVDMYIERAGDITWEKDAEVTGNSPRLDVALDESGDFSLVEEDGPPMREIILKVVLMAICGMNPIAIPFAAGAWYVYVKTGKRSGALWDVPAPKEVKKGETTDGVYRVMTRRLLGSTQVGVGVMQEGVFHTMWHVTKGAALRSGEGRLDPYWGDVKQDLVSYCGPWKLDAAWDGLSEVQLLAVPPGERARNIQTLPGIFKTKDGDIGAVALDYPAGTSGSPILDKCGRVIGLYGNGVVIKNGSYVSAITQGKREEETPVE

The number is log2 of the effect relative to wild type; negative values mean reduced growth, higher values better tolerance.
A change reads original residue, position, new residue.
All changes here are to lysine.

With T165K the assay gave -3.37.
With Q166K the assay gave -6.21.
With V167K the assay gave -5.57.
With G168K the assay gave -5.00.
With V169K the assay gave -5.45.
With G170K the assay gave -5.84.
With V171K the assay gave -4.83.
With M172K the assay gave -6.30.
With Q173K the assay gave -2.72.
With E174K the assay gave -5.94.
With G175K the assay gave -4.07.
With V176K the assay gave -5.03.
With F177K the assay gave -5.07.
With H178K the assay gave -4.73.
With T179K the assay gave -5.64.
With M180K the assay gave -4.88.
With W181K the assay gave -4.90.
With H182K the assay gave -4.55.
With V183K the assay gave -4.56.
With T184K the assay gave -6.28.
With G186K the assay gave -4.74.
With A187K the assay gave -4.87.
With A188K the assay gave -4.85.
With L189K the assay gave -5.75.
With R190K the assay gave -0.89.
With S191K the assay gave -5.04.
With G192K the assay gave -2.36.
With E193K the assay gave -2.15.
With G194K the assay gave -5.51.
With R195K the assay gave -5.94.
With L196K the assay gave -5.82.
With D197K the assay gave -6.60.
With P198K the assay gave -6.55.
With Y199K the assay gave -1.00.
With W200K the assay gave -6.80.
With G201K the assay gave -5.97.
With D202K the assay gave -5.53.
With V203K the assay gave -6.71.
With Q205K the assay gave -5.17.

The authors count -1 or higher as tolerated. Position 1 is the last residue of NS2A.
The region was split into three libraries (1-103, 104-206, 207-308).
Six mutants with high scores were retested singly and none clearly outgrew wild type, so positive values are not proof of better growth.

Reference: Ni et al. 2025, doi:10.1038/s41467-025-63602-z.